From publication PMC7247680, “Novel Indole-Based Hydrazones as Potent Inhibitors of the α-class Carbonic Anhydrase from Pathogenic Bacterium Vibrio cholerae” (International Journal of Molecular Sciences, 2020)

Target: VcCA (α-class carbonic anhydrase from Vibrio cholerae) (Vibrio cholerae, UniProt Q9KMP6)
Assay: stopped-flow CO2 hydration assay, Cheng-Prusoff
Assay type: biochemical
Details: read-out: KI * (nM) / VcCA; CO2 substrate, pH 7.4, 10 mM Hepes, 0.1 M NaClO4, 25 °C, 15 min pre-incubation

Row | Structure (SMILES) | Ki [nM]
1 | CCC(CC)=NNC(=O)c1[nH]c2ccc(S(N)(=O)=O)cc2c1-c1ccccc1 | 860
2 | CCC(C)=NNC(=O)c1[nH]c2ccc(S(N)(=O)=O)cc2c1-c1ccccc1 | 231
